Tested on: dividing ScN2a-cl3 cells

Dextran
LC50 ± SEM (cell viability by calcein): >10 (mg/L) | effect on cell viability: no effects on cell viability
